This data set relates to activated sludge from a municipal wastewater treatment plant (WWTP). The data set can be described thus: Biodegradability, OECD 301A DOC Die-Away Test (adjusted).

Each structure is given as a SMILES string.

Turning to `CCCCCCCCCCCC[N+](C)([O-])C[C@H](O)[C@@H](O)[C@@H](O)[C@H](O)C(=O)O` (stereo partly drawn) [Compound 43, N-methyl-N-dodecyl-D-galacturonic acid amine oxide], for the setting “acetate+sludge”, the “time within which no compound could be detected” value is reported as no more than 5 days.

Regarding `CCCCCCCCN(C)C[C@H](O)[C@@H](O)[C@@H](O)[C@H](O)C(=O)O` [Compound 31, N-methyl-N-octyl-D-galacturonic acid amine], the “time within which no compound could be detected” value reads like this: (acetate+sludge) no more than 15 days; (without acetate) no more than 20 days. The molecule further had a biodegradability (in 15 days, OECD 301 procedure, activated sludge) of 90%.

The record behind these values is patent publication US20260008801A1, “BIO-BASED SURFACTANTS DERIVED FROM CARBOHYDRATES” (COÖPERATIE KONINKLIJKE COSUN U.A., priority 2022, published 2026).
